Assay results as given in PMC7555312, “Functional Characterization of Temporin-SHe, a New Broad-Spectrum Antibacterial and Leishmanicidal Temporin-SH Paralog from the Sahara Frog (Pelophylax saharicus)” (International Journal of Molecular Sciences, 2020).
Where no end group is shown, it is not given here.

Assay: Circular dichroism in membrane-mimicking environments
Assay type: physicochemical
Conditions: CD

## FLPALAGIAGLLGKIF-NH2 [Temporin-SHe]
DMPC/DMPG (3:1) LUVs, peptide/lipid 1:100, phosphate buffer pH 7.3
  percentage of α-helical content (−∆ε222nm per residue × 10): 95.5%
DMPC/DMPG LUVs
  222/208 nm amplitude ratio: 0.98
SDS micelles
  222/208 nm amplitude ratio: 0.74
Peptide 30 µM in 80 mM SDS micelles
  percentage of α-helical content (−∆ε222nm per residue × 10): 31%
